{"source": "the supplement of paper PMC9931576", "binders": {"B1": {"name": "BD56-1712 (protein)", "chain 1": "QVHLVQSGAEVRKPGASVKVSCKASGYSLTSHFMHWVRQAPGQGLEWMGIINPSGSSADYAQRFQGRVSMTRDTSTSTVYMELSSLRSEDTAVYYCARGHRVAVAGLLDYWGQGTLVTVSS", "chain 2": "QTVVTQEPSLTVSPGGTVTLTCASSTGAVTSGYFPNWFQQKPGQAPRALIYSTSNRHSWTPARFSGSLLGGKAALALSGVQPEDEAEYYCLLYYGGAWVFGGGTKVTVL"}, "B2": {"name": "BD56-1716 (protein)", "chain 1": "EVQLVESGGHLVKPGGSLRLSCAASGFTFSNAWMNWVRQAPGKGLEWIGRIKSKTDGGSTDYAAPVKGRFTISRDDSKNTLYLQMNSLKTEDTAVYFCSTDGGLFYDYGDLDGFDIWGQGTMVTVSS", "chain 2": "DIVMTQSPLSLPVTPGEPASISCTSSQSLLHYNGNNYLDWYLQKPGQSPQLLIYLGSNRASGVPARFSGSGSGTDFTLKISRVEAEDVGVYYCMQVLQTPRTFGQGTKVEIK"}, "B3": {"name": "BD56-1707 (protein)", "chain 1": "EVHLVESGGGAVQPGGSLRLSCTASRFTFDDHAMHWVRQAPGKGLEWLSLISGDGGQTYHADSVKGRFSISRDNSKKSLYLQMSNLKTEDTAVYYCAKDMGWWGVTDFYGIDVWGQGTTVTVSS", "chain 2": "EIVLTQSPATLSLSPGERATLSCRASESIRTFLAWYQQKPAQAPRLLIYDASNRATGTPARFSGSGSGTDFTLTISSLEPEDFAVYYCHQRLNWPSFGQGTRLDIK"}, "B4": {"name": "BD56-1708 (protein)", "chain 1": "QVQLVQSGAEVKKPGSSVKVSCKASGGTFSSHSISWVRQAPGQGLEWMGRIFPILGVPNYGHHFQDRVTITADKSTSTAYLELTSLRSQDTAVYYCAREALAPANTWYFDLWGRGTLVTVSS", "chain 2": "QSVLTQPPSVSGAPGQRVTISCTGSNSNIGAGYDVHWYQQLPGTAPKLLIYDNNNRPSGVPDRFSGSKSGTSASLAITGLQAEDEADYYCQSYDSSLSDVVFAEGTKLTVL"}, "B5": {"name": "BD56-1710 (protein)", "chain 1": "EVQLVQSGGGLVQPGGSLRLSCAASGFIFSDYPMNWVRQVPGKGLEWVSYISSSSRTIYYADSVKGRFTISRDNARSSLYLHMSRLRDDDTAVYYCARADLWGYDIVTDYSALFDNWGQGTLVTVSS", "chain 2": "EIVLTQSPGTLSLSPGERATLSCRASQTVSSTYLAWYQQKPGQAPRLVIYGASSRASGIPDRFSGSGSGTDFTLTISRLEPEDFAVYYCQQSDTPPATFGQGTKVDIK"}, "B6": {"name": "BD56-1715 (protein)", "chain 1": "EVQLVESGGGLAQPGGSLRVSCAASGFMFGACSMSWVRQAPGKGLEWVANIKQDGSDKYYVDSVKGRFTISRDNAKNSLFLQMNSLRAEDTAIYYCARVDPGVVADDLYFDYWGQGTLVTVSS", "chain 2": "SSELTQPPSVSVSPGQTARITCSGDAFPNQYSYWYQQKPGQAPVMVIYKDNERPSGIPERFSGSSSGTTVTLTISGVQAEDEADYYCQSADSRSVVFGGGTKLTVL"}}, "assay_in_all_cases": "pseudovirus neutralization IC50; higher = weaker neutralization", "key": {"[1]": {"molecular_target": "SARS-CoV-2 Omicron BA.1 spike pseudovirus", "experimental": "(§1)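 Single-round VSV luciferase pseudovirus mixed with antibody dilutions for 1 h and put on Huh-7 cells for about a day; IC50 from the dose curve.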"}, "[2]": {"molecular_target": "SARS-CoV-2 Omicron BA.2 spike pseudovirus", "experimental": "as §1"}, "[3]": {"molecular_target": "SARS-CoV-2 Omicron BA.2.75 spike pseudovirus", "experimental": "as §1"}, "[4]": {"molecular_target": "SARS-CoV-2 Omicron BA.5 spike pseudovirus", "experimental": "as §1"}, "[5]": {"molecular_target": "SARS-CoV-2 Omicron BQ.1.1 spike pseudovirus", "experimental": "as §1"}, "[6]": {"molecular_target": "SARS-CoV-2 Omicron XBB spike pseudovirus", "experimental": "as §1"}, "[7]": {"molecular_target": "SARS-CoV-2 early D614G spike pseudovirus", "experimental": "as §1"}}, "note": "Human monoclonal antibodies against the spike receptor-binding domain (heavy:light variable regions). IC50 against pseudoviruses bearing the spike of naturally observed variants; lower = stronger; >10 µg/ml means not reached at the top dose. No active / inactive call. The stated detection limit is 0.0005 µg/ml; values near or below 0.001 µg/ml lie at the floor of the assay."}
{"binder": "B1", "values": [{"measurement": "pseudovirus neutralization IC50", "setting": "[1]", "result": 4.36, "unit": "µg/mL"}, {"measurement": "pseudovirus neutralization IC50", "setting": "[2]", "result": 1.08, "unit": "µg/mL"}, {"measurement": "pseudovirus neutralization IC50", "setting": "[3]", "result": "> 10", "unit": "µg/mL"}, {"measurement": "pseudovirus neutralization IC50", "setting": "[4]", "result": "> 10", "unit": "µg/mL"}, {"measurement": "pseudovirus neutralization IC50", "setting": "[5]", "result": "> 10", "unit": "µg/mL"}, {"measurement": "pseudovirus neutralization IC50", "setting": "[6]", "result": "> 10", "unit": "µg/mL"}, {"measurement": "pseudovirus neutralization IC50", "setting": "[7]", "result": 0.00766, "unit": "µg/mL"}]}
{"binder": "B2", "values": [{"measurement": "pseudovirus neutralization IC50", "setting": "[1]", "result": 0.0173, "unit": "µg/mL"}, {"measurement": "pseudovirus neutralization IC50", "setting": "[2]", "result": 0.00619, "unit": "µg/mL"}, {"measurement": "pseudovirus neutralization IC50", "setting": "[3]", "result": 0.0149, "unit": "µg/mL"}, {"measurement": "pseudovirus neutralization IC50", "setting": "[4]", "result": 0.00814, "unit": "µg/mL"}, {"measurement": "pseudovirus neutralization IC50", "setting": "[5]", "result": "> 10", "unit": "µg/mL"}, {"measurement": "pseudovirus neutralization IC50", "setting": "[6]", "result": "> 10", "unit": "µg/mL"}, {"measurement": "pseudovirus neutralization IC50", "setting": "[7]", "result": 0.0153, "unit": "µg/mL"}]}
{"binder": "B3", "values": [{"measurement": "pseudovirus neutralization IC50", "setting": "[1]", "result": 0.578, "unit": "µg/mL"}, {"measurement": "pseudovirus neutralization IC50", "setting": "[2]", "result": 0.375, "unit": "µg/mL"}, {"measurement": "pseudovirus neutralization IC50", "setting": "[3]", "result": 0.565, "unit": "µg/mL"}, {"measurement": "pseudovirus neutralization IC50", "setting": "[4]", "result": 3.85, "unit": "µg/mL"}, {"measurement": "pseudovirus neutralization IC50", "setting": "[5]", "result": "> 10", "unit": "µg/mL"}, {"measurement": "pseudovirus neutralization IC50", "setting": "[6]", "result": "> 10", "unit": "µg/mL"}, {"measurement": "pseudovirus neutralization IC50", "setting": "[7]", "result": 0.4, "unit": "µg/mL"}]}
{"binder": "B4", "values": [{"measurement": "pseudovirus neutralization IC50", "setting": "[1]", "result": 0.0155, "unit": "µg/mL"}, {"measurement": "pseudovirus neutralization IC50", "setting": "[2]", "result": 0.0103, "unit": "µg/mL"}, {"measurement": "pseudovirus neutralization IC50", "setting": "[3]", "result": 0.0239, "unit": "µg/mL"}, {"measurement": "pseudovirus neutralization IC50", "setting": "[4]", "result": 2.63, "unit": "µg/mL"}, {"measurement": "pseudovirus neutralization IC50", "setting": "[5]", "result": "> 10", "unit": "µg/mL"}, {"measurement": "pseudovirus neutralization IC50", "setting": "[6]", "result": "> 10", "unit": "µg/mL"}, {"measurement": "pseudovirus neutralization IC50", "setting": "[7]", "result": 0.0661, "unit": "µg/mL"}]}
{"binder": "B5", "values": [{"measurement": "pseudovirus neutralization IC50", "setting": "[1]", "result": "> 10", "unit": "µg/mL"}, {"measurement": "pseudovirus neutralization IC50", "setting": "[2]", "result": "> 10", "unit": "µg/mL"}, {"measurement": "pseudovirus neutralization IC50", "setting": "[3]", "result": "> 10", "unit": "µg/mL"}, {"measurement": "pseudovirus neutralization IC50", "setting": "[4]", "result": "> 10", "unit": "µg/mL"}, {"measurement": "pseudovirus neutralization IC50", "setting": "[5]", "result": "> 10", "unit": "µg/mL"}, {"measurement": "pseudovirus neutralization IC50", "setting": "[6]", "result": "> 10", "unit": "µg/mL"}, {"measurement": "pseudovirus neutralization IC50", "setting": "[7]", "result": "> 10", "unit": "µg/mL"}]}
{"binder": "B6", "values": [{"measurement": "pseudovirus neutralization IC50", "setting": "[1]", "result": "> 10", "unit": "µg/mL"}, {"measurement": "pseudovirus neutralization IC50", "setting": "[2]", "result": "> 10", "unit": "µg/mL"}, {"measurement": "pseudovirus neutralization IC50", "setting": "[3]", "result": "> 10", "unit": "µg/mL"}, {"measurement": "pseudovirus neutralization IC50", "setting": "[4]", "result": "> 10", "unit": "µg/mL"}, {"measurement": "pseudovirus neutralization IC50", "setting": "[5]", "result": "> 10", "unit": "µg/mL"}, {"measurement": "pseudovirus neutralization IC50", "setting": "[6]", "result": "> 10", "unit": "µg/mL"}, {"measurement": "pseudovirus neutralization IC50", "setting": "[7]", "result": "> 10", "unit": "µg/mL"}]}
